Anti-infective test results gathered from many reports (values: NIAID ChemDB through PubChem).

Common to all: enzyme or target tests

Percent inhibition refers to the dose given; in toxicity tests it is the harm to the cells. ICn is the concentration giving n% inhibition. Fold resistance has wild type as its base. Blank or dashed fields: not listed here. Lines come from different laboratories, so protocols vary.

structure	target	endpoint	agent	dose	method	mutations	strain	value
Nc1c[nH]c(=O)[nH]c1=O	Uracil phosphoribosyltransferase	inhibition	Toxoplasma gondii	2000 µM			RH	<5%
CC(C)=CCOc1cc(NC(=S)c2ccoc2C)ccc1Cl	Reverse transcriptase	fold resistance	HIV		nucleotide incorporation / radiometric	RT-N137T		0.27
NS(=O)(=O)c1ccc(CCNc2nnc(NC(=O)c3cc4ccccc4s3)s2)cc1	Polymerase	IC50	Human cytomegalovirus					>25 µM
C=CCN(C(=O)OCc1ccc([N+](=O)[O-])cc1)C1CCN(CC[C@](C)(CN(C)S(=O)(=O)c2ccccc2)c2ccccc2)CC1	CCR5	IC50			radiometric	CCR5-Y108A		0.23 µM
N#Cc1ccc(C(=O)Nc2nnc(NCCc3cccs3)s2)cc1	Polymerase	IC50	Human cytomegalovirus					<25 µM
Nc1nc2c(ncn2[C@H]2CC[C@@H](COP(=O)(O)OP(=O)(O)OP(=O)(O)O)O2)c(=O)[nH]1	Reverse transcriptase	IC50	HIV		nucleotide incorporation / radiometric	RT-N137T		2.2 µM
O=C(CCCCCl)Nc1nnc(NCCCCc2ccccc2)s1	Polymerase	IC50	Human cytomegalovirus					>25 µM
CC(Cl)(C(=O)O)P(=O)(O)O	DNA polymerase	IC50	Herpes simplex virus 2					>100 µM
Cn1c(=O)cc[nH]c1=O	Uracil phosphoribosyltransferase	IC50	Toxoplasma gondii				RH	>2000 µM
NS(=O)(=O)c1ccc(CCNc2nnc(NC(=O)/C=C/c3ccccc3Cl)s2)cc1	Polymerase	IC50	Human cytomegalovirus					<25 µM
O=P(O)(O)C(Br)P(=O)(O)O	DNA polymerase	IC50	Herpes simplex virus 1					>100 µM
CC(=O)c1cnccn1	Uracil phosphoribosyltransferase	IC50	Toxoplasma gondii				RH	>2000 µM
O=C(Nc1nnc(NCCC(c2ccccc2)c2ccccc2)s1)c1ccc2c(c1)C(=O)OC2=O	Polymerase	IC50	Human cytomegalovirus					<25 µM
Cc1cn([C@H]2C=C[C@@H](COP(=O)(O)OP(=O)(O)OP(=O)(O)O)O2)c(=O)[nH]c1=O	Reverse transcriptase	IC50	HIV		nucleotide incorporation / radiometric	RT-N137A		0.21 µM
CCOc1ccc2ccccc2c1C(=O)Nc1nnc(NC2CCc3ccccc32)s1	Polymerase	IC50	Human cytomegalovirus					<25 µM
O=C(O)C(F)(Cl)P(=O)(O)O	DNA polymerase	IC50	Epstein-Barr virus					>100 µM
O=C(c1ccccc1)N1C[C@H](CN2CCC(c3ccccc3)CC2)[C@@H](c2ccccc2)C1	CCR5	IC50			radiometric	CCR5-E283A		>10 µM
CO[P@](=O)(c1cc(C)cc(/C=C/C#N)c1)c1c(C(N)=O)[nH]c2ccc(Cl)cc12	Reverse transcriptase	IC50	HIV			K103N		2.203 µM
O=c1cccc[nH]1	Uracil phosphoribosyltransferase	inhibition	Toxoplasma gondii	2000 µM			RH	<5%
O=C(O)C(F)(F)P(=O)(O)O	DNA polymerase	inhibition	Epstein-Barr virus	100 µM				77%
O=C(Nc1nnc(NCc2cccc3ccccc23)s1)c1cccc([N+](=O)[O-])c1	Polymerase	IC50	Human cytomegalovirus					>25 µM
CC(C)C(=O)N1C[C@H](CN2CCC(c3ccccc3)CC2)[C@@H](c2ccccc2)C1	CCR5	IC50			radiometric	CCR5-W86A		0.83 µM
O=c1cn[nH]c(=O)[nH]1	Uracil phosphoribosyltransferase	inhibition	Toxoplasma gondii	2000 µM			RH	<5%
O=C(O)C(Cl)(Br)P(=O)(O)O	DNA polymerase	IC50	Herpes simplex virus 1					>100 µM
CC(C)(C)OC(=O)CCNc1nnc(NC(=O)c2ccc(C(F)(F)F)cc2)s1	Polymerase	IC50	Human cytomegalovirus					>25 µM
Nc1nccnc1C(=O)O	Uracil phosphoribosyltransferase	IC50	Toxoplasma gondii				RH	>2000 µM